Anti-infective test results gathered from many reports (values: NIAID ChemDB through PubChem).

All rows: tests in culture; organism: Mycobacterium avium; measure: EC50

ECn: concentration that inhibits the pathogen or its effect by n%. Conditions beyond the fields shown may differ between rows. Blank or dashed fields: not listed here.

compound,strain,result
O=c1ccn([C@H]2CC[C@@H](CO)O2)c(=O)[nH]1,ATCC 25291,>50 µg/mL
CC[C@H]1OC(=O)[C@H](C)[C@@H](O[C@H]2C[C@@](C)(OC)[C@@H](O)[C@H](C)O2)[C@H](C)[C@@H](O[C@@H]2O[C@H](C)C[C@H](N(C)C)[C@H]2O)[C@](C)(O)C[C@@H](C)CN(C)[C@H](C)[C@@H](O)[C@]1(C)O,15 isolates (HIV+),25 µg/mL
OO,485,>0.0005 µM
N#C/C(=C\c1ccc(Br)cc1)n1nnc2ccccc21,-,>12.5 µg/mL
Nc1cn(COCCO)c(=O)[nH]c1=O,ATCC 25291,>100 µg/mL
CC[C@H]1OC(=O)[C@H](C)[C@@H](O[C@H]2C[C@@](C)(OC)[C@@H](O)[C@H](C)O2)[C@H](C)[C@@H](O[C@@H]2O[C@H](C)C[C@H](N(C)C)[C@H]2O)[C@](C)(O)C[C@](C)(F)C(=O)[C@H](C)[C@@H](O)[C@]1(C)O,15 isolates (HIV+),50 µg/mL
O=c1[nH]c(=O)n([C@H]2C[C@H](O)[C@@H](CO)O2)cc1CO,ATCC 25291,>50 µg/mL
O=C1NC(Nc2cccc(Cl)c2)=N/C1=C\c1ccccc1Cl,-,<12.5 µg/mL
O=c1[nH]c(=O)n([C@@H]2O[C@H](CO)[C@@H](O)[C@H]2O)cc1O,ATCC 25291,>50 µg/mL
CCCCCCCCC#Cc1cn(COC(CO)CO)c(=O)[nH]c1=O,ATCC 25291,>50 µg/mL
Cc1cn([C@@H]2O[C@H](CO)[C@@H](O)[C@@H]2O)c(=O)[nH]c1=O,ATCC 25291,>50 µg/mL
[N-]=[N+]=NC(CBr)c1cn(COCCO)c(=O)[nH]c1=O,ATCC 25291,<50 µg/mL
O=C1NC(Nc2ccc(Cl)cc2)=N/C1=C\c1ccccc1Cl,-,<12.5 µg/mL
O=c1[nH]c(=O)n([C@H]2O[C@@H](CO)[C@H](O)[C@@H]2O)cc1Br,ATCC 25291,>50 µg/mL
[N-]=[N+]=NC(CCl)c1cn(COC(CO)CO)c(=O)[nH]c1=O,ATCC 25291,>100 µg/mL
O=c1[nH]c(=O)n([C@H]2C[C@H](O)[C@@H](CO)O2)cc1/C=C/Cl,ATCC 25291,>50 µg/mL
C=Cc1cn(COCCO)c(=O)[nH]c1=O,ATCC 25291,>100 µg/mL
CC[C@H]1OC(=O)[C@H](C)[C@@H](O[C@H]2C[C@@](C)(OC)[C@@H](O)[C@H](C)O2)[C@H](C)[C@@H](O[C@@H]2O[C@H](C)C[C@H](N(C)C)[C@H]2O)[C@](C)(OC)C[C@@H](C)C(=O)[C@H](C)[C@@H](O)[C@]1(C)O,-,<6.25 µg/mL

2 of the rows above, restated:

compound | strain | result
O=C1NC(Nc2ccc(Cl)cc2)=N/C1=C\c1ccccc1Cl | - | <12.5 µg/mL
OO | 485 | >0.0005 µM